Assay results published in US20120121591A1, “SELECTIVE AND POTENT PEPTIDE INHIBITORS OF Kv1.3” (priority 2009, published 2012).

How the values were obtained:
human Kv1.1 (human) = human Kv1.1 (human) (UniProt Q09470); test: cell-based or functional assay
human Kv1.3 (human) = human Kv1.3 (human) (UniProt P22001); test: cell-based or functional assay

Substance: Monovalent ShK(1-35 Q16K)-Fc/Fc heterodimer (Fc fusion)
- Kv1.1 (PX) IC50 (human Kv1.1 (human)): 14.8 nM
- Kv1.3 (PX) IC50 (human Kv1.3 (human)): 1.45 nM
- WB (IFNg) IC50 (human Kv1.3 (human)): 0.12 nM
- WB (IL-2) IC50 (human Kv1.3 (human)): 0.11 nM
